Anti-infective test results gathered from many reports (values: NIAID ChemDB through PubChem).

Shared fields: tests in culture; species: HIV-1; method: p24; measure: EC50

Neighbouring rows are from separate reports. ECn: concentration that inhibits the pathogen or its effect by n%. Blank or dashed fields: not listed here.

structure | strain or isolate | changes | cells | value
COc1ccc(Cc2ccccc2)cc1C(=O)CC(=O)C(=O)O | IIIB |  | MT-4 | <0.3 µM
Cc1cn([C@H]2C[C@H](N=[N+]=[N-])[C@@H](CO)O2)c(=O)[nH]c1=O | IIIB |  | MT-4 | <0.025 µM
Cc1cn([C@H]2C[C@H](N=[N+]=[N-])[C@@H](CO)O2)c(=O)[nH]c1=O | G910-11-(RT-T215Y/F) NRTI resistant | RT-T215Y/F | PBMC | 0.216 µM
CC(C)(C)C(=O)c1sc(C(=O)NCc2ccccc2)c(O)c1O | TZ97002 X4 CLADE A |  | PBMC | 0.4 µM
CCc1cc(NCc2nc3c(Cl)ccc(Cl)c3o2)c(=O)[nH]c1C | WMJ-2 |  | MT-4 | <0.2 µM
CC(C)[C@H](NC(=O)N(C)Cc1ccccn1)C(=O)N[C@@H](Cc1ccccc1)[C@H](O)C(=O)N1[C@H](C(=O)NC(C)(C)C)C[C@@H]2CCCC[C@@H]21 | RF |  | MT-2 | 0.24 µM
Cc1cn([C@H]2C[C@H](N=[N+]=[N-])[C@@H](COP(=O)(Oc3ccccc3)Oc3ccccc3)O2)c(=O)[nH]c1=O | IIIB |  | C8166 | 0.3 µM
O=C1N(Cc2ccc(CO)cc2)[C@H](Cc2ccccc2)[C@H](O)[C@@H](O)[C@@H](Cc2ccccc2)N1Cc1ccc(CO)cc1 | Clinical isolate V |  | PBMC | 0.07 µM
COc1c2ccoc2cc2oc(=O)ccc12 | IIIB |  | H9 | 30.1 µM
Cc1cn([C@H]2C[C@H](N=[N+]=[N-])[C@@H](COP(=O)(OCC(C)(C)C)C(N)=O)O2)c(=O)[nH]c1=O | GKV-4046 |  | MT-4 | <0.0022 µM
CC(C)OC(=O)OCOP(=O)(CO[C@H](C)Cn1cnc2c(N)ncnc21)OCOC(=O)OC(C)C | M184V (3TC-resistant RT M184V) | RT-M184V | MT-2 | 0.025 µM
CCCOP(=O)(OC[C@H]1O[C@@H](n2cc(C)c(=O)[nH]c2=O)C[C@@H]1N=[N+]=[N-])C(N)=O | GKV-4046 |  | MT-4 | 0.0096 µM
CC(C)(C)NC(=O)[C@@H]1C[C@@H]2CCC[C@@H]2N1C(=O)[C@@H](O)[C@H](Cc1ccccc1)NC(=O)[C@H](CC(N)=O)NC(=O)OCc1ccccc1 | RF |  | MT-2 | 0.078 µM
COCCOCCCc1cc(O)c(C(c2cccc(NS(=O)(=O)c3cn(C)cn3)c2)C2CC2)c(=O)o1 | IIIB |  | MT-4 | >>3 µM
CCOC(=O)P(=O)(OC[C@H]1O[C@@H](n2cc(C)c(=O)[nH]c2=O)C[C@@H]1N=[N+]=[N-])OC1CCCCC1 | GKV-4046 |  | MT-4 | 0.0064 µM
COc1ccc2c(O)c(C(c3cccc(NS(=O)(=O)c4ccc(C#N)cc4)c3)C3CC3)c(=O)oc2c1 | IIIB |  | MT-4 | >>10 µM
CSC[C@H](NC(=O)COc1cccc2cnccc12)C(=O)N[C@@H](Cc1ccccc1)[C@H](O)C(=O)N1CSC(C)(C)[C@H]1C(=O)NC(C)(C)C | AZT-insensitive clinical isolate |  | PBMC | 0.01 µM
NC1=Nc2c(ncn2CCC/C=C/P(=O)(O)O)C(=O)C1 | RF |  | PBMC | 3.8 µM
O=c1[nH]cnc2c1ncn2[C@H]1CC[C@@H](CO)O1 | XM-ABC-resistant | RT-K65R L74V M184V Y115F | MT-4 | <52 µM
Cc1cn([C@H]2C[C@H](N=[N+]=[N-])[C@@H](CO)O2)c(=O)[nH]c1=O | D34 X4 |  | PBMC | 0.008 µM
CCOP(=O)(OC[C@H]1O[C@@H](n2cc(C)c(=O)[nH]c2=O)C[C@@H]1N=[N+]=[N-])C(N)=O | GKV-4046 |  | MT-4 | 0.0077 µM
CC(=O)O[C@@H]1[C@H](OC(=O)CC(C)C)c2c(ccc3ccc(=O)oc23)OC1(C)C | IIIB |  | PBMC | 3.9 µM
CC(C)(C)NC(=O)[C@@H]1CSCN1C(=O)[C@@H](O)[C@H](Cc1ccccc1)NC(=O)[C@H](CC(N)=O)NC(=O)COc1cccc2ccccc12 | Clinical isolates |  | PBMC | 0.14 µM
O=C(O)C(=O)CC(=O)c1cccc(Cc2ccccc2)c1 | IIIB |  | MT-4 | <0.8 µM
CCO/N=C(\c1ccc(Br)cc1)C1CCN(C2(C)CCN(C(=O)c3c(C)cc[n+]([O-])c3C)CC2)CC1 | BaL |  | PM1 | 0.0009 µM
CCc1cc(NCc2nc3c(C)ccc(C)c3o2)c(=O)[nH]c1C | RF |  | MT-4 | <0.05 µM
CC(C)(C)NC(=O)[C@@H]1CCCN1C(=O)[C@@H](O)[C@H](Cc1ccccc1)NC(=O)[C@H](CC(N)=O)NC(=O)COc1cccc2ccccc12 | RF |  | MT-2 | 0.131 µM
C/C=C(/C)C(=O)OC(C)(C)[C@@H]1Cc2c(ccc3ccc(=O)oc23)O1 | IIIB |  | H9 | 4.6 µM
CCC(CC)c1cc(O)c(C(c2cccc(NS(=O)(=O)c3cn(C)cn3)c2)C2CC2)c(=O)o1 | IIIB |  | MT-4 | >>3 µM
Cc1cn([C@H]2C[C@H](N=[N+]=[N-])[C@@H](CO)O2)c(=O)[nH]c1=O | BaL |  | Macrophage + Monocytes/macrophages | <0.1 µM
CCCN(C)C(=O)Oc1nsnc1-c1c(Cl)cccc1Cl | IIIB |  | U-937 | 0.003 µM
CC(C)=CCOc1c2occc2cc2ccc(=O)oc12 | IIIB |  | H9 | 11.1 µM
NC1=Nc2c(ncn2CCC(/C=C/P(=O)(O)O)CO)C(=O)C1 | RF |  | C8166 | 8 µM
CC(C)(C)NC(=O)[C@@H]1C[C@@H]2CCCC[C@@H]2N1C(=O)[C@@H](O)[C@H](Cc1ccccc1)NC(=O)[C@H](CC(N)=O)NC(=O)COc1ccc2cc(Br)ccc2c1 | RF |  | MT-2 | 0.065 µM
COC(=O)[C@H](C)NP(=O)(OC[C@H]1O[C@@H](n2cc(C)c(=O)[nH]c2=O)C[C@@H]1N=[N+]=[N-])OC(Cl)(Cl)Cl | IIIB |  | C8166 | 0.4 µM
Cc1cn([C@H]2C[C@H](N=[N+]=[N-])[C@@H](CO)O2)c(=O)[nH]c1=O | NL4-3 | RT-A360T | MT-2 | 0.007 µM
O=C(O)c1cc(O)cc(O)c1N=Nc1ccc(/C=C/c2ccc(N=Nc3c(O)cc(O)cc3C(=O)O)cc2S(=O)(=O)O)c(S(=O)(=O)O)c1 | CLADE D |  | PBMC | 10.1 µg/mL
CCc1cc(NCc2nc3c(C)ccc(C)c3o2)c(=O)[nH]c1C | A17 |  | MT-4 | <25 µM
Nc1ccn([C@H]2CC[C@@H](CO)O2)c(=O)n1 | Isolate 6856 |  | PBMC | 0.04 µM
CCc1cc(NCc2nc3ccccc3o2)c(=O)[nH]c1C | rA17 |  | MT-4 | <200 µM
C[C@H]1/C=C/[C@@]2(C)CC[C@@H](C(C)(C)O)[C@@H]2[C@@H](O)C[C@](C)(O)/C=C/C1 | 95BRSP007 R5X4 |  | PBMC | <25 µM
NC1=Nc2c(ncn2CCCCCP(=O)(O)O)C(=O)C1 | RF |  | C8166 | >320 µM
CC12CCC[C@@]3(COC1=O)C1CC[C@@H]4C[C@@]1(CC[C@H]23)C[C@@]4(C)O | IIIB |  | H9 | 6 µM